The values that follow are results of earlier work, collected in patent US20260382601A1, “USE OF CYP3A4/5 INDUCERS IN TREATING OR ALLEVIATING PERIPHERAL NEUROPATHY” (published 2026).

Like-named read-outs stand apart in the source and are kept apart here.

Data set [1] deals with CYP3A.
Data set [2] relates to P-glycoprotein (P-gp). As to conditions: in vitro.
Data set [3] deals with CYP3A4/5. Conditions: role: inhibitor; human liver microsomes. On the technique in general: Liver microsomes are a subcellular fraction often used to study metabolism.

As for `CC[C@H](C)[C@@H]([C@@H](CC(=O)N1CCC[C@H]1[C@H](OC)[C@@H](C)C(=O)N[C@H](C)[C@@H](O)c1ccccc1)OC)N(C)C(=O)[C@@H](NC(=O)[C@@H](NC)C(C)C)C(C)C`, the “reduction of exposure amount of MMAE” value is reported as “approximately 46%” in data set [1] (Adcetris in combination with rifampicin (CYP3A inducer), literature 17, 18) and “approximately 46%” in data set [1] (brentuximab vedotin with rifampicin, literature 19). In data set [2], the “P-gp substrate / inhibitor status” value was “a substrate, but not an inhibitor, of P-glycoprotein (P-gp)”. Further, the “inhibitory activity on CYP3A4/5 and other CYP450 isoforms” value in data set [3] was “inhibitory activity on CYP3A4/5 but not on other CYP450 isoforms”.
